Test results reported in PubChem BioAssay AID624414 (National Center for Advancing Translational Sciences (NCATS), 2012).
This is a selection; strong and weak results do not stand in their true shares. Activity calls are given as the source filed them. Cut-off read from the data, not from the text of the source: active = activation above about 50%; inconclusive = mostly about 30% to 49%; inactive = weaker than that.

The chains behind the UniProt entries cited, without tags or fusion partners.
UniProt Q9GZU1, whole entry: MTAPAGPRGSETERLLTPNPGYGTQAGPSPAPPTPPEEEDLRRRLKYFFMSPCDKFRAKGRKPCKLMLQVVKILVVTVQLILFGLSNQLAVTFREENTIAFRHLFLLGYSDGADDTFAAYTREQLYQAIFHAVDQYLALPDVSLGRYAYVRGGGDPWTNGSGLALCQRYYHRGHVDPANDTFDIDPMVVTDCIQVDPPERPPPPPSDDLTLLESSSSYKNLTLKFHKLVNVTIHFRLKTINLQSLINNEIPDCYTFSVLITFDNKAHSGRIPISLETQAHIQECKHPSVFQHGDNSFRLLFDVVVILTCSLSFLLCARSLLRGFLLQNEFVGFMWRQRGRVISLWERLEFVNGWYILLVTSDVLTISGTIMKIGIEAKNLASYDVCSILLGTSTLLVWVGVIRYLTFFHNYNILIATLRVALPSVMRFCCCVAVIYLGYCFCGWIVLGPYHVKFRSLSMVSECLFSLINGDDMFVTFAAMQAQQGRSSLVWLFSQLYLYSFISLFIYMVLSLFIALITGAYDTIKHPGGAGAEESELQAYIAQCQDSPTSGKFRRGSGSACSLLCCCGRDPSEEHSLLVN

Molecular target: Mucolipin-1 (Homo sapiens) (UniProt Q9GZU1)
Test: qHTS for Agonists of the Human Mucolipin Transient Receptor Potential 1 (TRPML1); note: 0% is about no effect
Details: TRPML1-expressing cells, Ca2+ dye fluorescence, FDSS; stronger effect = higher value
Description: Mutations of human Mucolipin transient receptor potential 1 (TRPML1) cause type IV mucolipidosis (ML4), a devastating neurodegenerative disease in young children. […] Currently, there is no treatment for ML4. […] Under physiological conditions, TRPMLs regulate membrane trafficking by transducing information about PI(3,5)P2 levels into changes in juxtaorganellar Ca2+, thereby triggering membrane fusion/fission events in the late endocytic pathways (endolysosomal trafficking). In addition, TRPML1 mediates release of Fe2+ from late endosomes and lysosomes, which is essential for cellular iron metabolism. Thus, impaired ion (Ca2+ and Fe2+) homeostasis underlies lysosomal dysfunction and ML4 phenotypes. In ML4 cells, the problem is twofold. First, defective Ca2+-dependent membrane trafficking due to TRPML1-deficiency causes accumulation of lipids and other bio-materials in the lysosome. The second strike comes from the lysosomal iron overload (due to impairment of TRPML1's Fe2+ conductivity), which converts the accumulated materials into the nondegradable (resistant to lysosomal degradation) lipofuscin (also called aging pigment) in the lysosome. Lipofuscin accumulation dramatically compromises the functions of lysosomes.
Niemann-Pick type C (NPC) disease is another lysosome storage disease (LSD) with severe neurodegeneration during the childhood. Currently, there is no cure for NPC. […] Thus, TRPML1 is likely to be an essential regulator of lysosome ion homeostasis. We specifically hypothesize that stimulating TRPML1's Fe2+/Ca2+ channel activity in the lysosome using synthetic agonists can alleviate neurodegeneration associated with ML4 or NPC.
To this end, a high throughput screen was developed in a miniaturized format to screen against the Molecular Libraries Small Molecule Repository (MLSMR) to find small molecules that act either as inhibitors or agonist against the TRPML1 channel.
NIH Chemical Genomics Center [NCGC]
NIH Molecular Libraries Probe Centers Network [MLPCN]
Assay Submitter (PI): Haoxing Xu, University of Michigan Ann Arbor
TRPML1-DL cells are dissociated from flasks, counted and, brought up to a density of 500,000 cells per mL of media containing a 1X Tet inducer. Using a Multidrop Combi, 3uL of this cell solution is dispensed to each well of a 1536 TC treated, black, clear bottom hi base plate for a final cell density of 1,500 cells per well. The assay plates are incubated overnight (approximately 16 hours) at 37 degrees C and 5% CO2. Using a Multidrop Combi, 2uL of ABD Ca8 no wash dye plus quencher is added to each well. The assay plates incubate at room temperature in the dark for 45-90 minutes. The assay plate is read on the FDSS using the following protocol: 10 second baseline read, 23nL of compounds and controls are added using 1536 pintool, agonist read for 110 seconds, 1 uL EC80 addition (4uM final 54-4 diluted in media), antagonist read for 110 seconds.

SMILES	activation
CN(C)C1(CNC(=O)c2ccc(S(C)(=O)=O)cc2)CCCCC1	inactive: -0.176%
CC1=C2N=C(C=C3N=C(C(C)=C4[N-][C@@](C)([C@@H]5N=C1[C@](C)(CCC(=O)NC[C@@H](C)OP(=O)([O-])O[C@H]1[C@@H](O)[C@@H](n6cnc7cc(C)c(C)cc76)O[C@@H]1CO)[C@H]5CC(N)=O)[C@@](C)(CC(N)=O)[C@@H]4CCC(N)=O)[C@@](C)(CC(N)=O)[C@@H]3CCC(N)=O)C(C)(C)[C@@H]2CCC(N)=O.[C-]#N.[Co+3]	inactive: -0.252%
O=[N+]([O-])c1cc([N+](=O)[O-])c(Nc2nnnn2CCO)c([N+](=O)[O-])c1	inactive: 1.13%
O=C(/C=C/c1ccccc1)OC1CN2CCC1CC2 (stereo not given)	inactive: 0.607%
CCCC1OP(=O)(Nc2ccccc2)OCC1CC (stereo not given)	inactive: 1.54%
Cc1nn(-c2ccccc2)c2c1P(=O)(N1CCOCC1)N(C)C(c1ccccc1)=N2 (stereo not given)	inactive: 0.536%
CC1CCC(C(C)C)C(OP(=O)(Nc2ccccn2)c2ccccc2)C1 (stereo not given)	inactive: 27.2%
Cc1ccc(C(=O)OC2CN3CCC2CC3)cc1 (stereo not given)	inactive: 1.86%
COc1cc([N+](=O)[O-])ccc1[N+](=O)[O-]	inactive: -0.824%
COc1cc(C2NCCC3(OCCO3)C2(C)C)cc(OC)c1OC.O=[N+]([O-])c1cc([N+](=O)[O-])c(O)c([N+](=O)[O-])c1 (stereo not given)	inactive: -0.137%
CCCOc1ccc(NP(C)(=O)Oc2ccc(Cl)cc2)cc1 (stereo not given)	inactive: 1.23%
Nc1cccc([As](=O)(O)c2ccccc2)c1	inactive: -0.472%
CP(=O)(Nc1ccc(SC(F)(F)F)cc1)Oc1ccccc1 (stereo not given)	inactive: -0.14%
Cc1ccc(OCC(=O)OC2CN3CCC2CC3)cc1 (stereo not given)	inactive: 0.304%
O=[As](O)(c1cccs1)c1cccs1	inactive: 0.0843%
O=P1(Nc2ccc(Br)cn2)COc2ccccc2OC1	inactive: -0.645%
NS(=O)(=O)c1cccc(NC(=O)COC(=O)C(O)(c2ccccc2)c2ccccc2)c1	inactive: -0.129%
COc1ccccc1OP(C)(=O)Nc1c(C)cccc1C (stereo not given)	inactive: 2.03%
CN1CCCCC1COC(=O)C1(O)c2ccccc2CCc2ccccc21 (stereo not given)	inactive: -0.257%
O=P1(Nc2ncccn2)COc2ccccc2OC1	inactive: -0.389%
O=P1(N(CCCl)CCCl)NCCC(C(F)(F)F)O1 (stereo not given)	inactive: 0.245%
Clc1n[nH]nc1-c1nn[nH][15n]1	inactive: -0.0925%
CN(Cc1cccnc1)C(=O)COc1ccc(Cl)c(Cl)c1.O=[N+]([O-])c1cc([N+](=O)[O-])c(O)c([N+](=O)[O-])c1	inactive: -1.07%
CC(C)(C)C(=O)NC(Sc1ncccn1)C(Cl)(Cl)Cl (stereo not given)	inactive: -0.767%
O=P1(Nc2ccccn2)COc2ccccc2OC1	inactive: 0.389%
CCC1=CC2Cc3nc4ccc(Cl)cc4c(N)c3C(C1)C2 (stereo not given)	inactive: 2.2%
O=C(O)C(O)c1ccc(N(CCCl)CCCl)cc1.c1ccncc1 (stereo not given)	inactive: 0.106%
O=[N+]([O-])c1cc([N+](=O)[O-])c(-n2nnc3ccccc32)c([N+](=O)[O-])c1	inactive: -0.565%

SMILES	activation
CCOP(=O)(NC(=NC(C)c1ccccc1)NC(C)c1ccccc1)OCC (stereo not given)	inactive: 2.99%
Nc1ccc(CCCCOc2ccccc2)cc1.O=[N+]([O-])c1cc([N+](=O)[O-])c(O)c([N+](=O)[O-])c1	inactive: -0.733%
CCOP(=O)(Nc1ccc(C)cn1)OCC	inactive: -0.506%
CN(CCCl)Cc1cc(Cl)c(NC2=NCCN2)c(Cl)c1	inactive: 0.695%
Cc1ccc(S(=O)(=O)N(CCCN)CCCc2c(C)nc(N)[nH]c2=O)cc1.O=[N+]([O-])c1cc([N+](=O)[O-])c(O)c([N+](=O)[O-])c1	inactive: -0.916%
CC(C)/C=N\N=C(\N)N[N+](=O)[O-]	inactive: -0.962%
CN(C(=O)Cc1ccc(Cl)c(Cl)c1)[C@@H]1CCCC[C@H]1N1CCCC1	inactive: -0.174%
CC1(CBr)Cn2c(nc3ccccc3c2=O)S1 (stereo not given)	inactive: -0.249%
Cc1nc2ccc3ccccc3c2s1.O=[N+]([O-])c1cc([N+](=O)[O-])c(O)c([N+](=O)[O-])c1	inactive: 0.417%
O=[N+]([O-])c1cc([N+](=O)[O-])c(-c2cnn(-c3ccccc3)c2)c([N+](=O)[O-])c1	inactive: 0.843%
COc1ccccc1CNC(=O)COC(=O)C(O)(c1ccccc1)c1ccccc1	inactive: 0.656%
Cc1cccc(OCC(=O)OC2CN3CCC2CC3)c1 (stereo not given)	inactive: 1.1%
O=[As](O)(c1cccc(O)c1)c1cccc(O)c1	inactive: 0.553%
Cc1cc(C)cc(OP(C)(=O)Nc2ccc(C)cc2C)c1 (stereo not given)	inactive: 1.03%
CCOC(=O)c1ccc(NP(C)(=O)Oc2cc(C)cc(C)c2)cc1 (stereo not given)	inactive: -0.346%
O=C(OC1CN2CCC1CC2)c1ccc(Cl)cc1 (stereo not given)	inactive: -0.0405%
COc1cc(C(=O)NCC2(N3CCOCC3)CCCCC2)cc(Cl)c1OC(C)C	inactive: 1.71%
CS(=O)(=O)c1ccc(Cl)c(NC(=O)COC(=O)C(O)(c2ccccc2)c2ccccc2)c1	inactive: 0.46%
CCOP(=O)(Nc1cccc2ccccc12)OCC	inactive: -0.0567%
Cc1cc(C)cc(OP(C)(=O)Nc2ccccn2)c1 (stereo not given)	inactive: 0.0659%
CP(=O)(Nc1cccc(Br)c1)Oc1ccccc1 (stereo not given)	inactive: -0.0726%
Cc1ccc(NCCc2c([N+](=O)[O-])cc([N+](=O)[O-])cc2[N+](=O)[O-])cc1	inactive: -0.716%
Nc1cccc2c([As](=O)(O)O)cccc12	inactive: 0.393%
Cc1ccc(C)c(NP(C)(=O)Oc2ccccc2)c1 (stereo not given)	inactive: -1.19%
CCCOP(=S)(Nc1nc(N)cc(=O)[nH]1)OCCC	inactive: 3.65%
Nc1ccccc1[As](=O)(O)c1ccccc1	inactive: -0.382%
O=C(O)COc1ccc([As](=O)(O)O)cc1[N+](=O)[O-]	inactive: 0.0844%
